PubChem BioAssay AID743269 (The Scripps Research Institute Molecular Screening Center, 2014)
The entries are a selection whose mix differs from that of the whole data set. The source made the active and inactive calls.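 The calls were made as follows: active = inhibition above the screen-wide mean plus 3 SD (cut at about 13% in these data); inactive = the rest.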

tested on: HIV-1 integrase (with human LEDGF/p75); assay: blockers of LEDGF/p75-dependent integrase strand transfer – biochemical, TR-FRET, high throughput, primary screen (AID 743269); conditions: TR-FRET IN-LEDGF/p75 DNA integration, Eu/Cy5; at 3.7 µM; stronger effect = higher value;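 also: signal is the Cy5 over europium emission ratio at 671 and 618 nm; 0% = plate median of compound wells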

| Compound | inhibition |
| --- | --- |
| CC(=O)c1ccc(N2CC2c2ccncc2)cc1 (centres undefined) | inactive: -0.66% |
| COC(=O)C1(C)COP(=O)(NCc2ccccc2)OC1 (centres undefined) | inactive: -5.35% |
| Cc1ccccc1CN(C)C(=O)COC(=O)C(O)(c1ccccc1)c1ccccc1 | inactive: 3.69% |
| C[C@@H]1C=CCP(=O)(Oc2ccccc2)O1 (some centres undefined) | inactive: 1.52% |
| C[C@H]1OP(=O)(Oc2ccccc2)C[C@@H]2O[C@@H]21 (some centres undefined) | inactive: 1.8% |
| CC(=O)Nc1ccc([As](=O)(O)O)c(O)c1 | inactive: -0.15% |
| CC(=O)Nc1ccc(Oc2c([N+](=O)[O-])cc([N+](=O)[O-])cc2[N+](=O)[O-])cc1 | inactive: -4.04% |
| CCNC(=S)/N=C(\N)N[N+](=O)[O-] | inactive: 1.33% |
| O=C(NC1CCS(=O)(=O)C1)NP(=S)(Oc1ccccc1)Oc1ccccc1 (centres undefined) | inactive: 0.92% |
| c1ccc(-c2nn[nH]n2)c(-c2nn[nH]n2)c1 | inactive: 3.6% |
| Cc1ccc(NP(=O)(Oc2cccc(C)c2)Oc2cccc(C)c2)nc1 | inactive: 1.87% |
| O=P1(N(CCCl)CCCl)OCCC2CCCCN21 (centres undefined) | inactive: 0.87% |
| COC(=O)c1cc2c(s1)N=C(c1ccccc1)N(C)P2(=O)N1CCOCC1 (centres undefined) | inactive: -1.15% |
| Cc1ccc(OP(=O)(Nc2ccccn2)Oc2ccc(C)cc2)cc1 | inactive: -2.52% |
| CC(=O)NC(SC(=S)N(CC(C)C)CC(C)C)C(Cl)(Cl)Cl (centres undefined) | inactive: -0.12% |
| O=C(OC1CN2CCC1CC2)c1ccccc1 (centres undefined) | inactive: -2.34% |
| CCC(=O)N1C2C3N(C(=O)CC)C1C1N(C(=O)CC)C(C(N1C(=O)CC)N3C(=O)CC)N2C(=O)CC | inactive: -1.61% |
| Cc1ccccc1OP(=O)(Nc1ccccn1)Oc1ccccc1C | inactive: -5.42% |
| CC(NC(=O)COC(=O)C(O)(c1ccccc1)c1ccccc1)c1ccccc1 (centres undefined) | inactive: 1.66% |
| CN(C)C(=O)Oc1noc2ccccc12 | inactive: 1.37% |
| O=c1c2cc([N+](=O)[O-])ccc2[nH]c2c([N+](=O)[O-])cc([N+](=O)[O-])cc12 | inactive: 4.92% |
| CCOP1(=S)c2c(C)nn(CCC#N)c2N=C(c2ccccc2F)N1C (centres undefined) | inactive: -3.01% |

| Compound | inhibition |
| --- | --- |
| O=P(Nc1nccs1)(Oc1ccccc1)Oc1ccccc1 | inactive: -0.75% |
| Nc1ccccc1[As](=O)(O)c1ccccc1 | inactive: 5.26% |
| O=C(O)COc1ccc([As](=O)(O)O)cc1[N+](=O)[O-] | inactive: 12.2% |
| NC(=O)Nc1ccc([As](=O)(O)O)cc1 | inactive: -1.69% |
| CN(C)C(=O)c1cc([N+](=O)[O-])cc2c1-c1c(cc([N+](=O)[O-])cc1[N+](=O)[O-])C2=O | inactive: 0.51% |
| O=[N+]([O-])c1ccc2c(c1)nnn2O | inactive: -0.45% |
| CN(C(=O)Cc1ccc(Cl)c(Cl)c1)[C@H]1CC[C@@]2(CCCO2)C[C@@H]1N1CCCC1 | inactive: -2.68% |
| N#CCCN(C(=O)COC(=O)C(O)(c1ccccc1)c1ccccc1)c1ccc(F)cc1 | inactive: -2.05% |
| CN(C(=O)Cc1ccccc1)[C@@H]1CC[C@]2(CCCO2)C[C@H]1N1CCCC1 | inactive: -5.82% |
| CCOP1(=S)c2c(C)nn(CCC#N)c2N=C(c2ccc(F)cc2)N1C (centres undefined) | inactive: -0.64% |
| COc1cc(C(=O)NCC2(N3CCOCC3)CCCCC2)cc(Cl)c1OC(C)C | inactive: 3.94% |
| O=[As](O)(O)c1cccnc1 | inactive: -6.68% |
| CS(=O)(=O)c1ccc(Cl)c(NC(=O)COC(=O)C(O)(c2ccccc2)c2ccccc2)c1 | inactive: 4.21% |
| O=C(OC1CN2CCC1CC2)c1ccc(Cl)cc1 (centres undefined) | inactive: 1.13% |
| O=[As](O)(c1cccc(O)c1)c1cccc(O)c1 | inactive: 2.98% |
| Cc1cccc(OCC(=O)OC2CN3CCC2CC3)c1 (centres undefined) | inactive: -1.28% |
| CCCOP(=S)(Nc1nc(N)cc(=O)[nH]1)OCCC | inactive: 2.11% |
| Nc1cccc2c([As](=O)(O)O)cccc12 | active: 41.8% |
| Cc1ccc(NCCc2c([N+](=O)[O-])cc([N+](=O)[O-])cc2[N+](=O)[O-])cc1 | inactive: 3.37% |
| COc1cc(C2NCCC3(OCCO3)C2(C)C)cc(OC)c1OC (centres undefined) | inactive: -0.97% |
| CCOP(=O)(Nc1cccc2ccccc12)OCC | inactive: -2.51% |
| CN(CCCl)Cc1cc(Cl)c(NC2=NCCN2)c(Cl)c1 | inactive: -1.67% |

| Compound | inhibition |
| --- | --- |
| CCOP(=O)(Nc1ccc(C)cn1)OCC | inactive: -2.83% |
| O=P1(Nc2ccccn2)COc2ccccc2OC1 | inactive: 1.5% |
| CCC1=CC2Cc3nc4ccc(Cl)cc4c(N)c3C(C1)C2 (centres undefined) | inactive: -5.21% |
| CCOP(=O)(NC(=NC(C)c1ccccc1)NC(C)c1ccccc1)OCC (centres undefined) | inactive: 1.22% |
| O=P1(N(CCCl)CCCl)NCCC(C(F)(F)F)O1 (centres undefined) | inactive: -0.41% |
| Clc1n[nH]nc1-c1nn[nH][15n]1 | inactive: -0.38% |
| CC(C)(C)C(=O)NC(Sc1ncccn1)C(Cl)(Cl)Cl (centres undefined) | inactive: -1.19% |
| COc1ccccc1CNC(=O)COC(=O)C(O)(c1ccccc1)c1ccccc1 | inactive: 0.09% |
| CC1(CBr)Cn2c(nc3ccccc3c2=O)S1 (centres undefined) | inactive: 2.78% |
| CC(C)/C=N\N=C(\N)N[N+](=O)[O-] | inactive: -2.17% |
| CN(C(=O)Cc1ccc(Cl)c(Cl)c1)[C@@H]1CCCC[C@H]1N1CCCC1 | inactive: -4.04% |
| CN(C(=O)Cc1ccc(Cl)c(Cl)c1)C1CCCC[C@@H]1N1CCCC1 (some centres undefined) | inactive: 1.09% |
| Cc1nn(-c2ccccc2)c2c1P(=O)(N1CCOCC1)N(C)C(c1ccccc1)=N2 (centres undefined) | inactive: 1.54% |
| CC1CCC(C(C)C)C(OP(=O)(Nc2ccccn2)c2ccccc2)C1 (centres undefined) | inactive: 1.29% |
| Cc1ccc(C(=O)OC2CN3CCC2CC3)cc1 (centres undefined) | inactive: -1.02% |
| O=C(/C=C/c1ccccc1)OC1CN2CCC1CC2 (centres undefined) | inactive: 5.08% |
| CCCC1OP(=O)(Nc2ccccc2)OCC1CC (centres undefined) | inactive: -3.97% |
| CN(C)C1(CNC(=O)c2ccc(S(C)(=O)=O)cc2)CCCCC1 | inactive: -4.19% |
| O=P1(Nc2ncccn2)COc2ccccc2OC1 | inactive: -0.75% |
| Cc1ccc(S(=O)(=O)N(CCCN)CCCc2c(C)nc(N)[nH]c2=O)cc1 | inactive: 1.32% |
| O=P1(Nc2ccc(Br)cn2)COc2ccccc2OC1 | inactive: 0.31% |
| NS(=O)(=O)c1cccc(NC(=O)COC(=O)C(O)(c2ccccc2)c2ccccc2)c1 | inactive: 0.96% |

| Compound | inhibition |
| --- | --- |
| O=[As](O)(c1cccs1)c1cccs1 | inactive: -1.86% |
| Cc1ccc(OCC(=O)OC2CN3CCC2CC3)cc1 (centres undefined) | inactive: 1.64% |
| Nc1cccc([As](=O)(O)c2ccccc2)c1 | inactive: 3.71% |
| CC1CCNP(=O)(N(CCCl)CCCl)O1 (centres undefined) | inactive: 3.88% |
| CCOC(=O)Nc1ccc([As](=O)(O)O)c(O)c1 | inactive: -5.22% |
| O=C(O)C(O)c1ccc(N(CCCl)CCCl)cc1 (centres undefined) | inactive: 3.97% |
| CCCCOc1ccc(C(=O)NCC2(N3CCCCC3)CCCCC2)cc1OC | inactive: 0.16% |
| Cc1cc(SC(NC(=O)c2ccccc2)C(Cl)(Cl)Cl)nc(C(C)C)n1 (centres undefined) | inactive: 0.68% |
| COP(=O)(OC)N1CC1c1ccccc1 (centres undefined) | inactive: 3.65% |
| CCOC(=O)Nc1cccc([As](=O)(O)O)c1 | inactive: 1.91% |
| O=[N+]([O-])c1ccc(Nc2ccc(Oc3ccc([N+](=O)[O-])cc3[N+](=O)[O-])cc2)c([N+](=O)[O-])c1 | inactive: -0.5% |
| O=P(Nc1ccccn1)(c1cccc2ccccc12)c1cccc2ccccc12 | inactive: -2.89% |
| Cc1cc(SC(NC=O)C(Cl)(Cl)Cl)ncn1 (centres undefined) | inactive: -3.54% |
| COP1(=S)c2c(C)nn(CCC#N)c2N=C(c2ccc(F)cc2)N1C (centres undefined) | inactive: -1.69% |
| COC(=O)C1(C)COP(=O)(N2CCCC2)OC1 (centres undefined) | inactive: 2.16% |
| O=C(COc1ccccc1)OC1CN2CCC1CC2 (centres undefined) | inactive: 0.8% |
| O=C(Nc1ccncc1[N+](=O)[O-])c1ccc([N+](=O)[O-])cc1[N+](=O)[O-] | inactive: -0.84% |
| O=C(O)C(=O)c1ccc(N(CCCl)CCCl)cc1 | inactive: -0.99% |
| CCOC(=O)c1ccc(NC(=O)C(C)(CCl)SC)cc1 (centres undefined) | inactive: 4.77% |
| O=C(OC1CN2CCC1CC2)c1cccc([N+](=O)[O-])c1 (centres undefined) | inactive: -3.72% |
| CCC(C)N(CC(C)C)C(=S)SC(NC(C)=O)C(Cl)(Cl)Cl (centres undefined) | inactive: 1.59% |
| O=C(OC1CN2CCC1CC2)C12CC3CC(CC(C3)C1)C2 (centres undefined) | inactive: 0.32% |

| Compound | inhibition |
| --- | --- |
| Cc1cc(=O)[nH]c(N[N+](=O)[O-])n1 | inactive: 0.41% |
| Cc1c2c(nc3ccccc13)SC(C(Cl)Cl)C2 (centres undefined) | inactive: -0.27% |
| COc1ccc2nc(NP(=O)(c3ccccc3)c3ccccc3)sc2c1 | inactive: 3.13% |
| COc1cc(I)ccc1[As](=O)(O)O | inactive: 10.1% |
| O=P1(N(CCCl)CCCl)Nc2ccccc2N1 | inactive: 2.43% |
| O=P1(N(CCCl)CCCl)OCCCN1CCCl (centres undefined) | inactive: -1.93% |
| COc1ccc(N/C(=N/P(=O)(N2CCOCC2)N2CCOCC2)N2CCOCC2)cc1 | inactive: -4.08% |
| O=[N+]([O-])c1cc(Oc2ccc([N+](=O)[O-])cc2C(F)(F)F)cc([N+](=O)[O-])c1 | inactive: -1.73% |
| O=[As](O)(c1ccc(O)cc1)c1ccccc1O | inactive: 1.39% |
| C[As](=O)(O)c1cccc(C(=O)O)c1 | inactive: 0.22% |
| COc1cc(C(=O)NCC2(N3CCOCC3)CCCCC2)ccc1OCC(C)C | inactive: 5.12% |
| O=[N+]([O-])c1ccc(-c2cc([N+](=O)[O-])c(O)c([N+](=O)[O-])c2)cc1 | inactive: 7.95% |
| Cc1ccc2nc3c(c(C)c2c1)CC(C(Cl)Cl)S3 (centres undefined) | inactive: -1.74% |
| [N-]=[N+]=NC1CCCCC1NC(=O)c1cc([N+](=O)[O-])cc([N+](=O)[O-])c1 (centres undefined) | inactive: -3.48% |
| Cc1ccc(OP(=O)(Nc2ccc([N+](=O)[O-])cn2)Oc2ccc(C)cc2)cc1 | inactive: -1.89% |
| CC(C)c1ccc(OP(=O)(Nc2ccccn2)Oc2ccccc2F)cc1 (centres undefined) | inactive: -5.81% |
| COC(=O)C1(C)COP(=O)(N2CCCCCC2)OC1 (centres undefined) | inactive: -2.15% |
| ClCCSc1nnc(-c2cccnc2)o1 | inactive: -1.24% |
| O=C(OC1CN2CCC1CC2)c1cccc2[nH]cnc12 (centres undefined) | inactive: -2.12% |
| CCN(CC)C(=S)SC(NC=O)C(Cl)(Cl)Cl (centres undefined) | inactive: -5.87% |
| CC(C)NC(=O)NP(=O)(Oc1ccccc1)Oc1ccccc1 | inactive: -0.23% |
